Measured values from several laboratories, pooled; numbers as filed in NIAID ChemDB.

All rows: tests in culture; organism: Respiratory syncytial virus; cell line: HeLa; measure: EC50

Blank or dashed fields: not listed here. Rows are shuffled and stem from different studies. ECn is the concentration giving n% inhibition of infection, replication or growth.

| smiles | strain | method | value |
|---|---|---|---|
| NC(=O)c1ncn([C@@H]2O[C@H](CO)[C@@H](O)[C@H]2O)c1O | - | plaque count | 1.7 µg/mL |
| Nc1cc2[nH]cnc2c(=O)[nH]1 | 58-8 | cytopathic effect | 1 µg/mL |
| NC(=O)c1ncn([C@@H]2O[C@H](CO)[C@@H](O)[C@H]2O)n1 | - | cytopathic effect | 6 µg/mL |
| NC(=O)c1ncn([C@@H]2O[C@H](CO)[C@@H](O)[C@H]2O)n1 | - | cytopathic effect | 2 µg/mL |
| Nc1ccc(S(=O)(=O)O)c2cccc(S(=O)(=O)O)c12 | - | cytopathic effect | >200 µM |
| C[C@H](O)[C@@H]1C[C@H](Cn2nnc3c(=O)[nH]cnc32)C1(C)C | - | cytopathic effect | >200 µg/mL |
| C#Cc1c(C(N)=O)ncn1[C@@H]1O[C@H](CO)[C@@H](O)[C@H]1O | TYPE B/SM-6148 | plaque count | 0.06 µg/mL |
| CC(C)CCCC(C)C1CCC2C3CC=C4CC(OC(=O)Nc5ccc(S(=O)(=O)O)c6cccc(S(=O)(=O)O)c56)CCC4(C)C3CCC12C | - | cytopathic effect | 4 µM |
| C#Cc1c(C(N)=O)ncn1[C@@H]1O[C@H](CO)[C@@H](O)[C@H]1O | - | cytopathic effect | 0.2 µg/mL |
| NC(=O)c1ncn([C@@H]2O[C@H](CO)[C@@H](O)[C@H]2O)n1 | LONG | cytopathic effect | 4 µg/mL |
| O=C1C=CN([C@@H]2O[C@H](CO)[C@@H](O)[C@H]2O)C(=O)C1 | LONG | cytopathic effect | >500 µg/mL |
| CC(C)CCCC(C)C1CCC2C3CC=C4CC(OC(=O)Nc5ccc(S(=O)(=O)O)c6ccccc56)CCC4(C)C3CCC12C | - | cytopathic effect | 6 µM |
| C[C@H](O)[C@@H]1C[C@H](Cn2cnc3c(N)ncnc32)C1(C)C | - | cytopathic effect | 2.4 µg/mL |
| NC12CC3CC(CC(C3)C1)C2 | LONG | cytopathic effect | 72 µg/mL |
| NC(=O)c1[nH]nc([C@@H]2O[C@H](CO)[C@@H](O)[C@H]2O)c1O | LONG | cytopathic effect | 0.09 µg/mL |
| c1ccc2c(c1)CSSC2 | clone 16 (RD3-0028-resistant) | cytopathic effect | >244.4 µM |
| N#Cc1c(C(N)=O)ncn1[C@@H]1O[C@H](CO)[C@@H](O)[C@H]1O | LONG | cytopathic effect | >500 µg/mL |
| C[C@H](O)[C@]1(C)C[C@H](Cn2nnc3c(N)ncnc32)C1(C)C | - | cytopathic effect | >200 µg/mL |
| Nc1ccn([C@@H]2C[C@H](CO)[C@@H](O)[C@H]2O)c(=O)n1 | S-2 | cytopathic effect | >100 µg/mL |
| NC(=O)c1[nH]nc([C@@H]2O[C@H](CO)[C@@H](O)[C@H]2O)c1O | A2 | cytopathic effect | 0.04 µg/mL |

For reference, 2 entries again:

smiles	strain	method	value
N#Cc1c(C(N)=O)ncn1[C@@H]1O[C@H](CO)[C@@H](O)[C@H]1O	LONG	cytopathic effect	>500 µg/mL
NC(=O)c1[nH]nc([C@@H]2O[C@H](CO)[C@@H](O)[C@H]2O)c1O	LONG	cytopathic effect	0.09 µg/mL